A mixed list of measured activities; the numbers were collected in NIAID ChemDB.

All rows: growth or infection tests

a–b is a range or a potency band. ECn: concentration that inhibits the pathogen or its effect by n%. Neighbouring rows are from separate reports. An empty or dashed field is not shown. Inhibition is in % at the dose shown (toxicity tests: loss of growth or viability). MIC50, MIC90 and the like: level of inhibition, or share of isolates inhibited.

structure	read-out	dose	setting	strain or isolate	changes	organism	cell line	read by	value
CC(=O)Nc1ccc(C(=O)O)cc1	inhibition	1 µM				Pneumocystis carinii			0%
O=C(NNC(=O)c1ccncc1)Nc1ccc(Br)c(F)c1	MIC100		21 d	My 6509/96		Mycobacterium kansasii		broth dilution	>125 µM
Cn1nc(Cc2ccc(Cl)cc2)c2ccccc2c1=O	MIC50			Clinical isolate (IM 972751)		Cryptococcus neoformans		broth dilution	31.3 µg/mL
[2H]C([2H])(NC(=O)C[C@@]12CC[C@]3(C)[C@H](CC[C@@H]4[C@@]5(C)CC[C@H](OC(=O)[C@H]6C[C@@H](C(=O)O)C6(C)C)C(C)(C)[C@@H]5CC[C@]43C)C1=C(C(C)C)C(=O)C2)c1ccccc1	EC50			92HT599		HIV-1	MT-2	p24 / ELISA	<1 µM
Nc1nc2c(ncn2CCC(CO)CO)c(=O)[nH]1	EC50			SB		Human herpesvirus 7	HUMAN CORD BLOOD CELLS	antigen	>100 µM
CC(C)C1=C2[C@H]3CC[C@@H]4[C@@]5(C)CC[C@H](OC(=O)[C@H]6C[C@@H](C(=O)O)C6(C)C)C(C)(C)[C@@H]5CC[C@@]4(C)[C@]3(C)CC[C@@]2(CCNCC(CCCCN)NC(=O)c2ccc(Cl)cc2)CC1=O	EC50			92HT599		HIV-1	MT-2	p24 / ELISA	<1 µM
CO/N=C(/C(=O)N[C@@H]1C(=O)N2C(C(=O)O)=C(COC(N)=O)CS[C@H]12)c1ccco1	MIC90			595 strains		Streptococcus pneumoniae			0.5 µg/mL
CCCCCCCCCCCC[N+](C)(C)COC(CC)CCCCC	MBC			ATCC33592		Staphylococcus aureus			25.5 µM
COc1cc(O)c2c(=O)cc(-c3ccccc3)oc2c1CC=C(C)C	inhibition	6 µM		Type 2/Mexican isolate		Dengue virus	LLC-MK2	plaque count	0%
C=Cc1cn([C@@H]2O[C@H](CO)[C@@H](O)[C@@H]2O)c(=O)[nH]c1=O	inhibition	0.1 µg/mL		Ohtomo		Varicella zoster virus	HELF	plaque count	100%
O=C(NCCc1ccccc1)Nc1nc2ccc(F)cc2s1	inhibition	0.1 µg/mL				HIV-2	MT-4	cytopathic effect / XTT	4%
CC(N)C12CC3CC(CC(C3)C1)C2	EC50			Influenza A H3N2 isolate 296		Influenza A virus	MDCK	ELISA	9 µg/mL
C[C@@]1(O)[C@H](O)[C@@H](COP(=O)(O)OP(=O)(O)OP(=O)(O)O)O[C@H]1n1ccc2c(N)ncnc21	EC50					West Nile virus	VERO	neutral red	4.5 µM
Cc1nc(NC(=O)NCCc2ccccc2)sc1C	inhibition	100 µg/mL				HIV-2	MT-4	cytopathic effect / XTT	85%
Clc1ccccc1-c1nc2ccn(Cc3ccc(Br)cc3)cc-2n1	EC50			PE515		Bovine viral diarrhea virus	MDBK	cytopathic effect	0.351 µg/mL
O=C1[C@@H](Cc2ccccc2)NC(=S)N1c1ccccc1	inhibition	1 µg/mL				HIV-2	MT-4	RT activity	33%
CC(C)(C)c1ccc(NC(=O)NNC(=O)c2ccncc2)cc1	MIC100		14 d	My 6509/96		Mycobacterium kansasii		broth dilution	62.5 µM
Cc1c(N)c(F)cc2c(=O)c(C(=O)O)cn(-c3cc(N)c(F)cc3F)c12	Mean MIC			27 isolates		Staphylococcus aureus			0.01 µg/mL
O=c1[nH]c(=O)n([C@H]2C[C@H](O)[C@@H](CO)O2)cc1/C=C/Br	EC50					Epstein-Barr virus	P3HR-1	cytopathic effect	0.055 µM
CCCCCCCCCCCC[N+](C)(C)CSCCCCCC	MBC			ATCC33592		Staphylococcus aureus			26.3 µM
CCN(C(=O)N(C)CCc1ccccn1)c1nc2ccc(NC(=O)CCCNC(=O)OCc3ccccc3)c(C)c2c(=O)o1	EC90					Herpes simplex virus 1	VERO	plaque count	>12.5 µM
Ic1ccc(Cn2ccc3nc(-c4ccccc4)nc-3c2)cc1	EC50			PE515		Bovine viral diarrhea virus	MDBK	cytopathic effect	0.12 µg/mL
CC(C)C1=C2[C@H]3CC[C@@H]4[C@@]5(C)CC[C@H](OC(=O)[C@H]6C[C@@H](C(=O)O)C6(C)C)C(C)(C)[C@@H]5CC[C@@]4(C)[C@]3(C)CC[C@@]2([C@@H](O)CNCC(F)(CCCN)NC(=O)c2ccc(Cl)cc2)CC1=O	EC50			92HT599		HIV-1	MT-2	p24 / ELISA	<1 µM
O=C(O)P(=O)(O)O	inhibition	800 µM		AD169		Cytomegalovirus	HFF	hybridisation	99.8%
Nc1nc2c(ncn2COCCO)c(=O)[nH]1	inhibition	10 µg/mL		YS		Varicella zoster virus	HELF	plaque count	100%
O=C1[C@@H](Cc2ccccc2)NC(=S)N1Cc1ccccc1	inhibition	1 µg/mL				HIV-2	MT-4	RT activity	1%
Cc1cn([C@@H]2O[C@H](CO)[C@@H](O)[C@@H]2F)c(=O)nc1N	inhibition	0.01 µg/mL		Ohtomo		Varicella zoster virus	HELF	plaque count	100%
CC(C)C1=C2[C@H]3CC[C@@H]4[C@@]5(C)CC[C@H](OC(=O)[C@H]6C[C@@H](C(=O)O)C6(C)C)C(C)(C)[C@@H]5CC[C@@]4(C)[C@]3(C)CC[C@@]2(CCNCc2ccc(CN3CCC(O)CC3)cc2)CC1=O	EC50			92HT599		HIV-1	MT-2	p24 / ELISA	<1 µM
O=C1N(CCCCCOc2ccc(-c3ccc(Cl)cc3)cc2)CCN1c1ccncc1	EC50			Clinical isolate 71 (2231) genotype C		Enterovirus	RD	cytopathic effect	0.076 µM
Cc1c(NC(=O)OC(C)(C)C)ccc2nc(N(CC(C)C)C(=O)NCc3ccncc3)oc(=O)c12	EC90					Herpes simplex virus 1	VERO	plaque count	>25 µM
Nc1nc(=O)n2ccn([C@H]3C[C@H](O)[C@@H](CO)O3)c2n1	EC50					West Nile virus			>100 µM
O=C(NCCc1ccccc1)Nc1nc2ccccc2s1	EC50					HIV-2	MT-4	RT activity	<1 µg/mL
CCCCCCCCCCCC[N+](C)(C)COCC(C)CCC	MBC			ATCC 6538		Staphylococcus aureus			3.43 µM
CCC	EC50			victoria/3/75 (H3)		Influenza A virus	MDCK		>500 µM
Cc1cn([C@H]2C[C@H](O[Si](C)(C)C(C)(C)C)[C@@H](/C=C/C#N)O2)c(=O)[nH]c1=O	EC50			DAVIS		Cytomegalovirus	HeLa		10–20 µM
c1ccc(-c2ccc(Cn3ccc4nc(-c5ccccc5)nc-4c3)cc2)cc1	EC50			PE515		Bovine viral diarrhea virus	MDBK	cytopathic effect	0.945 µg/mL
CCCCCCCCCCCC[N+](C)(C)CSCCC	MBC			ATCC33592		Staphylococcus aureus			29.6 µM
O=C(NCCc1ccccc1)Nc1nc(C(F)(F)F)cs1	inhibition	10 µg/mL				HIV-2	MT-4	RT activity	98%
C=CCc1ccc(OC)c(OC)c1	MIC90			2357		Candida albicans		turbidity	350 µg/mL
Cc1cc(C(=O)NC(C)(C)CNC[C@H](O)[C@@]23CC[C@]4(C)[C@H](CC[C@@H]5[C@@]6(C)CC[C@H](OC(=O)[C@H]7C[C@@H](C(=O)O)C7(C)C)C(C)(C)[C@@H]6CC[C@]54C)C2=C(C(C)C)C(=O)C3)n[nH]1	EC50			92HT599		HIV-1	MT-2	p24 / ELISA	<1 µM
CCCCCCCCCCCC[N+](C)(C)COC(CCC)CCC	MBC			ATCC33592		Staphylococcus aureus			6.61 µM
CCC(C)n1ncn(-c2ccc(N3CCN(c4ccc(OC[C@H]5CO[C@](Cn6cncn6)(c6ccc(Cl)cc6Cl)O5)cc4)CC3)cc2)c1=O	inhibition	16 µg/mL		AF293	mpkC	Aspergillus fumigatus		broth dilution	99.83%
Cc1c(NC(=O)OC(C)(C)C)ccc2nc(N3CCC[C@H]3C(=O)N(C)CCc3ccccn3)oc(=O)c12	EC90					Herpes simplex virus 1	VERO	plaque count	>12.5 µM
Fc1cccc(F)c1Cn1ccc2nc(-c3c(F)cccc3F)nc-2c1	EC50			PE515		Bovine viral diarrhea virus	MDBK	cytopathic effect	0.24 µg/mL
Nc1nc(=O)n2ccn([C@@H]3O[C@H](CO)[C@@H](O)[C@H]3O)c2n1	EC50					West Nile virus			>100 µM
Cn1cc(CCCCOc2ccc(C(=O)O)cc2)cc1C=O	EC50					Vesicular stomatitis virus	VERO	plaque count	>380 µM
Cc1c(NCCO)c(F)cc2c(=O)c(C(=O)O)cn(-c3cc(N)c(F)cc3F)c12	Mean MIC			27 isolates (methicillin-resistant)		Staphylococcus aureus			0.027 µg/mL
COc1cc(Cl)ccc1C(=O)NC(C)(C)CNCC[C@@]12CC[C@]3(C)[C@H](CC[C@@H]4[C@@]5(C)CC[C@H](OC(=O)[C@H]6C[C@@H](C(=O)O)C6(C)C)C(C)(C)[C@@H]5CC[C@]43C)C1=C(C(C)C)C(=O)C2	EC50			92HT599		HIV-1	MT-2	p24 / ELISA	<1 µM
O=c1[nH]c(=O)n([C@@H]2O[C@H](CO)[C@@H](O)[C@@H]2O)cc1/C=C/Cl	inhibition	0.01 µg/mL		Ohtomo		Varicella zoster virus	HELF	plaque count	100%
CC(C)C1=C2[C@H]3CC[C@@H]4[C@@]5(C)CC[C@H](OC(=O)[C@H]6C[C@@H](C(=O)O)C6(C)C)C(C)(C)[C@@H]5CC[C@@]4(C)[C@]3(C)CC[C@@]2(CCNCc2ccc(Cl)cc2O[C@@H]2CCOC2)CC1=O	EC50			92HT599		HIV-1	MT-2	p24 / ELISA	<1 µM
CCCCCCCCCCCC[N+](C)(C)COC1CCCCCC1	MBC			ATCC33592		Staphylococcus aureus			26.6 µM
Fc1cc(F)c(Cn2ccc3nc(-c4c(F)cccc4F)nc-3c2)c(F)c1	EC50			PE515		Bovine viral diarrhea virus	MDBK	cytopathic effect	0.365 µg/mL
Nc1nc(=O)n2ccn([C@@H]3O[C@H](CO)C[C@H]3O)c2n1	EC50					West Nile virus			>100 µM
CC(CCOc1ccc(-c2ccc(Cl)cc2)cc1)CCN1CCN(c2ccncc2)C1=O	EC50			Clinical isolate 71 (4643) genotype C		Enterovirus	RD	cytopathic effect	0.0093 µM
O=C(NNC(=O)c1ccncc1)Nc1ccc(F)cc1Br	MIC100		7 d	My 235/80		Mycobacterium kansasii		broth dilution	>125 µM
CC(C)C1=C2[C@H]3CC[C@@H]4[C@@]5(C)CC[C@H](OC(=O)[C@H]6C[C@@H](C(=O)O)C6(C)C)C(C)(C)[C@@H]5CC[C@@]4(C)[C@]3(C)CC[C@@]2(CCNC[C@H](C)NC(=O)c2ccc(Cl)cc2)CC1=O	EC50			92HT599		HIV-1	MT-2	p24 / ELISA	<1 µM
Cc1cccc(-c2nc3ccn(Cc4ccc(Br)cc4)cc-3n2)c1	EC50			PE515		Bovine viral diarrhea virus	MDBK	cytopathic effect	0.1 µg/mL
C[C@H]1COc2c(N3CCN(C)CC3)c(F)cc3c(=O)c(C(=O)O)cn1c23	MIC90					Enterococcus faecium			2–50 µg/mL
COc1ccccc1Cn1ccc2nc(-c3ccccc3)nc-2c1	EC50			PE515		Bovine viral diarrhea virus	MDBK	cytopathic effect	0.049 µg/mL
Cc1c(NC2CC2)c(F)cc2c(=O)c(C(=O)O)cn(-c3cc(N)c(F)cc3F)c12	MIC			ATCC51519		Enterococcus faecium			8 µg/mL
O=C(NNC(=O)c1ccncc1)Nc1c(Cl)cc(Cl)cc1Cl	MIC100		14 d	My 6509/96		Mycobacterium kansasii		broth dilution	125 µM

Again, the opening 6 rows:

structure | read-out | dose | setting | strain or isolate | changes | organism | cell line | read by | value
CC(=O)Nc1ccc(C(=O)O)cc1 | inhibition | 1 µM |  |  |  | Pneumocystis carinii |  |  | 0%
O=C(NNC(=O)c1ccncc1)Nc1ccc(Br)c(F)c1 | MIC100 |  | 21 d | My 6509/96 |  | Mycobacterium kansasii |  | broth dilution | >125 µM
Cn1nc(Cc2ccc(Cl)cc2)c2ccccc2c1=O | MIC50 |  |  | Clinical isolate (IM 972751) |  | Cryptococcus neoformans |  | broth dilution | 31.3 µg/mL
[2H]C([2H])(NC(=O)C[C@@]12CC[C@]3(C)[C@H](CC[C@@H]4[C@@]5(C)CC[C@H](OC(=O)[C@H]6C[C@@H](C(=O)O)C6(C)C)C(C)(C)[C@@H]5CC[C@]43C)C1=C(C(C)C)C(=O)C2)c1ccccc1 | EC50 |  |  | 92HT599 |  | HIV-1 | MT-2 | p24 / ELISA | <1 µM
Nc1nc2c(ncn2CCC(CO)CO)c(=O)[nH]1 | EC50 |  |  | SB |  | Human herpesvirus 7 | HUMAN CORD BLOOD CELLS | antigen | >100 µM
CC(C)C1=C2[C@H]3CC[C@@H]4[C@@]5(C)CC[C@H](OC(=O)[C@H]6C[C@@H](C(=O)O)C6(C)C)C(C)(C)[C@@H]5CC[C@@]4(C)[C@]3(C)CC[C@@]2(CCNCC(CCCCN)NC(=O)c2ccc(Cl)cc2)CC1=O | EC50 |  |  | 92HT599 |  | HIV-1 | MT-2 | p24 / ELISA | <1 µM